The record followed here is article PMC11298430, “Synthesis and In vitro evaluation of bichalcones as novel anti-toxoplasma agents” (Frontiers in Chemistry, 2024).

This series concerns human fibroblasts Hs27. Briefly: MTT cytotoxicity assay. It is filed as cell-based. Particulars: ratio of CC50/IC50 (Hs27 / T. gondii). The method, then: The MTT [3-(4, 5-dimethylthiazole-2-yl)-2, 5-diphenyltetrazolium bromide] reduction assay ([Mosmann, 1983]) was used to quantify the cytotoxic effects of the examined chalcones and bichalcones on the host cells. To avoid edge effects, only the inner 60 wells of each plate were used. Briefly, 5 × 10^4 Hs27 cells per well were cultured in 96-well microtiter plates in Iscove’s modified Dulbecco’s medium (IMDM, Gibco–Thermo Fisher Scientific, Braunschweig, Germany, #12440053) with a volume of 100 µL per well and incubated overnight at 37°C until confluence. Different concentrations of the compounds (ranging from 200 μM to 0.09 µM) were then added to the Hs27 cells. Controls included untreated Hs27 cells treated with DMSO, and cells treated with staurosporine (0.031, 0.062, 0.125, 0.25, 0.5, 1 µM) (Merck, Darmstadt, Germany, #S4400), a natural product known for its potent activity as apoptosis inducer ([Belmokhtar et al., 2001]). After 24 h of incubation, the culture media were replaced with 100 µL of Dulbecco’s Modified Eagle Medium (DMEM) medium without red phenol (Gibco-Thermo Fisher Scientific, Braunschweig, Germany, #21041025) plus 10% heat-inactivated fetal bovine serum (FBS Standard, South America origin, fetal bovine serum, […] sterile filtered, PAN-Biotech, Aidenbach, Germany, #P30-3,306), and […] 2-mercaptoethanol (Gibco-Thermo Fisher Scientific, Braunschweig, Germany, #21985023). The experiment was performed following the manufacturer’s instructions (CyQuant MTT Cell Viability Assay Kit, Thermo Fisher Scientific, Braunschweig, Germany, #V-13154). Optical density (O.D.) was measured at 570 nm using a microplate reader (TECAN Sunrise, Männedorf, Switzerland). The half-maximal cytotoxic concentration (CC50) values of each compound against Hs27 cells relative to DMSO-treated samples were determined using GraphPad PRISM™ statistical software (version 9.5.1; San Diego, CA). In addition, the selectivity index (SI) of each compound was calculated from the ratio of CC50/IC50.
(In general: Tetrazolium dyes change colour on reduction, which living cells bring about.)

Each structure is given as a SMILES string.

As for `COc1cc(C)c(-c2c(C)cc(OC)c(C(=O)/C=C/c3ccccc3)c2O)c(O)c1C(=O)/C=C/c1ccccc1` (racemic) [2ab], the SI is recorded as > 6,994.

Turning to `COc1ccc(/C=C/C(=O)c2c(O)cc(C)cc2OC)cc1` [1aa], the SI is on record as 8.2.

In the case of `COc1cc(C)cc(O)c1C(=O)/C=C/c1ccc(Br)cc1` [1ae], the SI was determined as 18.

Turning to `COc1cc(C)cc(O)c1C(=O)/C=C/c1cccc(Br)c1` [1af], the SI amounted to 21.7.

Regarding `COc1cc(O)c(C(=O)/C=C/c2ccccc2)c(OC)c1` [1bb], the SI was found to be 14.6.

`COc1cc(O)c(C(=O)/C=C/c2cccc(Br)c2)c(OC)c1` [1bf]: the SI is listed as greater than 18.

Turning to `COc1ccc(/C=C/C(=O)c2c(OC)cc(C)c(-c3c(C)cc(OC)c(C(=O)/C=C/c4ccc(OC)cc4)c3O)c2O)cc1` [2aa], the SI was greater than 30.

As for `COc1cc(C)c(-c2c(C)cc(OC)c(C(=O)/C=C/c3ccc(C(F)(F)F)cc3)c2O)c(O)c1C(=O)/C=C/c1ccc(C(F)(F)F)cc1` [2ad], the SI is given as greater than 8.

Regarding `COc1cc(C)c(-c2c(C)cc(OC)c(C(=O)/C=C/c3ccc(Br)cc3)c2O)c(O)c1C(=O)/C=C/c1ccc(Br)cc1` [2ae], the SI is listed as greater than 25.

For the molecule `COc1cc(C)c(-c2c(C)cc(OC)c(C(=O)/C=C/c3cccc(Br)c3)c2O)c(O)c1C(=O)/C=C/c1cccc(Br)c1` [2af], the SI was greater than 7.

`COc1cc(C)c(-c2c(C)cc(OC)c(C(=O)/C=C/c3ccccc3Br)c2O)c(O)c1C(=O)/C=C/c1ccccc1Br` [2ag]: the SI is on record as greater than 11.

For the molecule `COc1cc(OC)c(-c2c(OC)cc(OC)c(C(=O)/C=C/c3ccccc3)c2O)c(O)c1C(=O)/C=C/c1ccccc1` [2bb], the SI was greater than 21.

Take `COc1cc(OC)c(-c2c(OC)cc(OC)c(C(=O)/C=C/c3ccc(C(F)(F)F)cc3)c2O)c(O)c1C(=O)/C=C/c1ccc(C(F)(F)F)cc1` [2bd]: the SI is listed as greater than 65.

`COc1cc(OC)c(-c2c(OC)cc(OC)c(C(=O)/C=C/c3ccc(Br)cc3)c2O)c(O)c1C(=O)/C=C/c1ccc(Br)cc1` [2be]: the SI is listed as greater than 23.

Turning to `COc1cc(OC)c(-c2c(OC)cc(OC)c(C(=O)/C=C/c3cccc(Br)c3)c2O)c(O)c1C(=O)/C=C/c1cccc(Br)c1` [2bf], the SI is listed as greater than 16.
